Measured values: US20170088600A1 (published 2017)

Target: TRAIL-R1-Fc (human TRAIL-R1 ectodomain Fc fusion) (human, UniProt O00220 24-239)
Experiment: SPR

B1: UL141 (protein)
chain: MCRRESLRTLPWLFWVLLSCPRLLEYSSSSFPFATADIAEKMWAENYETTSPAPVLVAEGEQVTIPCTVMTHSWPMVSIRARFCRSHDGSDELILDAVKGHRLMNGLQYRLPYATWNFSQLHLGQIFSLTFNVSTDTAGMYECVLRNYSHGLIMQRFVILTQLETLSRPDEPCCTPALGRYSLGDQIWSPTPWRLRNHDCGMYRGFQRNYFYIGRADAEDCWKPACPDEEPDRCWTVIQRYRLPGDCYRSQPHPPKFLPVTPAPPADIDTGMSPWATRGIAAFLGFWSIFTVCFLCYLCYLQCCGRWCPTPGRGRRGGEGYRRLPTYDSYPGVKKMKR
Kd: 2.33 µM
